A mixed list of measured activities; the numbers were collected in NIAID ChemDB.

Common to all: growth or infection tests; organism: Cryptococcus neoformans; read-out: MIC

Rows are shuffled and stem from different studies. An empty or dashed field is not shown.

structure,strain or isolate,read by,value
O=C1/C(=C/c2ccccc2)CSc2ccc(Cl)cc21,93/V,-,50 µg/mL
Oc1cccc(C=Nc2ccccc2O)c1,ATCC 62066,broth dilution,1.4 µg/mL
CCC(C)n1ncn(-c2ccc(N3CCN(c4ccc(OC[C@H]5CO[C@](Cn6cncn6)(c6ccc(Cl)cc6Cl)O5)cc4)CC3)cc2)c1=O,Clinical isolate (IM 031631),broth dilution,<0.015 µg/mL
O=[N+]([O-])c1ccc(C=Nc2ccccc2O)cc1,27JF,broth dilution,32 µg/mL
C[C@@H]1[C@H](O)[C@@H](C)/C=C/C=C/C=C/C=C/C=C/C=C/C=C/[C@H](O[C@@H]2O[C@H](C)[C@@H](O)[C@H](N)[C@@H]2O)C[C@@H]2O[C@](O)(C[C@@H](O)C[C@@H](O)[C@H](O)CC[C@@H](O)C[C@@H](O)CC(=O)O[C@H]1C)C[C@H](O)[C@H]2C(=O)O,Clinical isolate (IM 972724),broth dilution,0.06 µg/mL
CCC(C)CC(C)CCCCCCCCC(=O)N[C@H]1C[C@@H](O)[C@H](NCCN)NC(=O)[C@@H]2[C@@H](O)CCN2C(=O)[C@H]([C@H](O)CCN)NC(=O)[C@H]([C@H](O)[C@@H](O)c2ccc(O)cc2)NC(=O)[C@@H]2C[C@@H](O)CN2C(=O)[C@H]([C@@H](C)O)NC1=O,B 35735,broth dilution,16 µg/mL
COc1ccc(/C=C2\CSc3ccc(OC)cc3C2=O)cc1,93/V,-,25 µg/mL
Oc1ccc(O)c(C=Nc2ccccc2O)c1,ATCC 28957,broth dilution,8 µg/mL
COc1ccc(/C=C2\CCc3ccccc3C2=O)cc1OC,25,-,25 µg/mL
Cc1nc(NCCCCNc2ccnc3cc(Cl)ccc23)nc(-c2ccccc2[N+](=O)[O-])c1C(=O)OC(C)C,ATCC 24067,-,5.7 µg/mL
COc1ccccc1/C=C1\CSc2ccc(Cl)cc2C1=O,25,-,1.5 µg/mL
CC[C@@H]([C@H](C)O)n1ncn(-c2ccc(N3CCN(c4ccc(OC[C@@H]5CO[C@@](Cn6cncn6)(c6ccc(F)cc6F)C5)cc4)CC3)cc2)c1=O,DUMC100.91,-,0.125 µg/mL
CC(C(O)(Cn1cncn1)c1ccc(F)cc1F)S(C)(=O)=O,R718 (AZOLE-R),-,50 µM
Oc1ccccc1N=Cc1ccc(O)c(O)c1O,GM,broth dilution,11.3 µg/mL
COc1ccc(/C=C2\COc3ccc(SC)cc3C2=O)cc1,Farwania,-,12.5 µg/mL

2 of the rows above, restated:

structure	strain or isolate	read by	value
COc1ccc(/C=C2\CCc3ccccc3C2=O)cc1OC	25	-	25 µg/mL
O=C1/C(=C/c2ccccc2)CSc2ccc(Cl)cc21	93/V	-	50 µg/mL